Molecular target: T1, WT HIV-1 RT (Human immunodeficiency virus type 1 group M subtype B, UniProt P03366)
T1 construct: viral nucleotides (dNTPs) and the HIV-1 RT enzyme in an incubation buffer; purchased Roche
Assay: HIV-1 RT inhibition assay (Roche kit, ELISA)
Format: biochemical
Excerpt: An assay kit for HIV-1 reverse transcriptase (RT) from Roche was utilized to assess RT inhibition. The kit provided all necessary components for the RT reaction, and the enzyme-linked immunosorbent assay (ELISA) methodology for the inhibition assay was executed according to the kit’s instructions. […] Unbound dNTPs were washed away, and an anti-[…] (DIG)-POD working solution was introduced. […] Excess anti-DIG-POD was removed, and a peroxidase substrate (ABTS) solution was applied to the MTPs. […] The percentage of the inhibitory activity of the RT inhibitors was calculated by formula, as given below:
% Inhibition = [O.D. value with RT but without inhibitors − O.D. value with RT and inhibitors]/[O.D. value with RT […] − O.D. value without RT and inhibitors].

## Cc1cc(C#N)cc(C)c1Oc1nc(Nc2ccc(C#N)cc2)nc(N)c1Br [ETR, etravirine, reference compound]
  IC50: 18 ± 2 nM

Source: PMC11354745, “Discovery of Novel Amino Acids (Analogues)-Substituted Thiophene[3,2-d]pyrimidine Derivatives as Potent HIV-1 Non-Nucleoside Reverse Transcriptase Inhibitors: Design, Synthesis, and Biological Evaluation” (International Journal of Molecular Sciences, 2024)
